Data on 12 molecules can be found in the supplement of paper PMC9931576.

Human monoclonal antibodies against the spike receptor-binding domain (heavy:light variable regions). IC50 against pseudoviruses bearing the spike of naturally observed variants; lower = stronger; >10 µg/ml means not reached at the top dose. No active / inactive call. The stated detection limit is 0.0005 µg/ml; values near or below 0.001 µg/ml lie at the floor of the assay. Where only a bound is given, the exact number is not on record here.

B1: BD56-1690 (protein)
chain 1: QVQLVQSGAEVKKPGSSVKVSCKASGGTFSSYTISWVRQAPGQGLEWMGWIIPILNIPNYAQKFQGRVTLTADKSTSTAYLEVISLRSEDTAVYFCALQRGYSGYGSVSYFENWGQGTLVTVSS
chain 2: QSALTQPPSVSGAPGQRVTISCTGSNSNIGAGYDVHWYQQLPGIAPKLLIYGNSNRPSGVPDRVSGSKSGTSASLAITGLQAEDEADYYCQSYDSSLGGDVVFGGGTKLTVL
B2: BD56-1662 (protein)
chain 1: EQMQVEQSGPEVKKPGTSVKVSCKASGFTFPISSVQWLRQARGQHLEWIGWIVIGTGDTNYAQNFKERVTIIADMSSGTVYMELSSLRSEDTAVYYCAAPSCNRTLCFDGFDLWGQGTMVSVSS
chain 2: EIVLTQSPGTLSLSPGERATLSCRASQSVSSSYLAWYQQRLGQAPRLLIYGASSRATGIPDRFSGGGSGTDFTLTISRLEPEDFAVYHCQQYSNSPWTFGRGTKVEIK
B3: BD56-1653 (protein)
chain 1: EVQLLESGGGLVQPGGSLGLSCAASGFRFSSYAMSWVRQAPGKGLEWLSVIYSGGAGTYYADSVKGRFTISRDDSKNTLFVQMNSLRAEDTAVYYCARHKAVVGTYYYYSMDVWGQGTSVTVSS
chain 2: SYVLTQPPSVSVAPGQTARFTCGGNNIGLNSVHWYQQKSGQAPVLVVYDDSDRPSGIPERFSGSNSGNTATLTINRVEAGDEADYYCQVWDGRSDHVVFGGGTKLTVL
B4: BD56-1671 (protein)
chain 1: EVHLVESGGGLVQPGGSLRLTCAASGFTFSEYDIHWVRQPTGKGLEWVSAIGTTGDTYYEDSVKGRFTISRENAKKSLFLQMNNLKAGDTAVYYCARGGSGFHWYFDVWGRGTLVTVSS
chain 2: DIQMTQSPFSLSASVGDRVTITCRASQTIGRYLNWYQQKPGKAPELLIYAASSLQSGVPSRFSGSGSGTDFTLTISSLQPEDFATYYCQQSYVMPPPTFGQGTKVEIK
B5: BD56-1663 (protein)
chain 1: QVQLVQSGAEVKKPGSSVRVSCKASGGTFSSFPISWVRQAPGQGLEWMGRIIPILGVPNYAQRFQGRVTITADKSTSTAYMELSSLTSADTAVYYCARARGYSGSGSSYYFDYWGQGTLVTVSS
chain 2: QSVLTQPPSVSGAPGQRVTISCTGSDSNIGAGYDVHWYQQLPGTAPKLLMYANTNRPSGVPARFSGSKSGTSASLAITGLQAEDEADYYCQSYDSSLSDSVFGGGTKLTVL
B6: BD56-1667 (protein)
chain 1: QVHLVQSGAEVKRPGSSVKVSCKASGGTFSSFGISWVRQAPGQGLEWMGRIIPIIGVPSYAQKFQGRVTITADKSTTTAYMELSSLRSEDTAVYYCARDVGYSGYGATAWFDPWGQGTLVTVSS
chain 2: QSVLTQPPSVSGAPGQRVTISCTGSNSNIGAGYDVHWYQQLPGTAPKLLIYRNNNRPSGVPDRFSGSKSGTSASLAITGLHSDDEADYYCQSYDSSLSDSVFGRGTKLTVL
B7: BD56-1656 (protein)
chain 1: QVQLVESGGGVVQPGRSLRLSCVASGFTFRTYGMHWVRQAPGKGLEWVASIWYDGSNEDYADSAKGRFTVSRDNPNHTLFLQLNSLRVEDTAIYYCAKDPNPYASGWFSFHFDYWGQGSLVTVSS
chain 2: QSVLTQPPSVSGAPGQRVTISCTGSSSNIGASYDVHWYQQLPGTAPKLLIYDNSNRPSGVPDRFSGSKSDTSASLAITGLQAEDEADYYCQSYDTSLGRVFGGGTKLTVL
B8: BD56-1660 (protein)
chain 1: QVQLVESGGGVVQPGRSLRLSCAASGFTFNSYVMHWVRQAPGKGLEWVALISYDGSNKYYADSVKGRFTISRDNFKHTLYLQMNSLRAEDTAVYYCAREFDVDSGMVNNDAYGLDVWGQGTTVTVSS
chain 2: DIQMTQSPSSLSASVGDRVTITCRASQSISSYLNWYQQKPGKAPKLLIYFALSLQSGVPSRFSGSGSGTDFTLTISSLQPDDLATYYCQQSYSTPPLTFGGGTKVEIK
B9: BD56-1661 (protein)
chain 1: EVQLVESGGGLVQPGRSLRLSCAASGFPFDDYAMHWVRQAPGKGLEWVSGISWNGGVIGYADSVKGRCIISRDNAKNSLYLHMNSLRAEDTALFYCVKDMSGGDYQHYFDHWGQGTLVTVSS
chain 2: SYVLTQPPSVSVAPGKTARITCGGNYIGSKSVHWYQQRPGQAPVLVVYDDSDRPSGIPERLSGSKSGNTATLTISRVEAGDEADYYCQMWDSSSDLYVFGTGTKVTVL
B10: BD56-1669 (protein)
chain 1: EVQLLESGGGLVQPGGSLRLSCAASGFSFSSYAMNWVRQAPGKGLQWVSVIYSGGSSTSYTDSVKGRFTIARDDSKNTLFLQMNRLRAEDTAVYYCTKEASYCTSTRCHPSEYFQHWGQGTLVTVSS
chain 2: SFVLTQPPSVSVAPGKTARITCGGDSIASKNVHWYQQKPGQAPVLVVYDDSDRPSGIPERFSGSNSGNTATLTISRVEPGDEADYYCQVWDGSSDHPYVFGSGTKVTVL
B11: BD56-1683 (protein)
chain 1: EVQLVESGGGLVQPGGSLRLSCAASGFTFRNYDMHWVRQLTGKGLEWVSTIGTAGDSYYPDSVRGRFTISRENARNSLYLQIDRLRAGDTAVYYCARGGEGYRFGSWYFDVWGRGTLVTVSS
chain 2: DIQMTQSPSSLSASVGDRVTITCRASQSISNFLNWYQQKPGKAPKLLIYGASNLQTGVPSRFSGSGSGTDFTLTISSLQPEDFATYYCQQCYSTDITFGQGTRLEIK
B12: BD56-1664 (protein)
chain 1: QVQLVESGGGVVQPGRSLRLSCAASGFTFSNYAMHWVRQAPGKGLEWVAVILYDGRNKLYADSVKGRFTISRDNSKNTLFLQMNSLRAEDTAVYYCARDEAMVGITTLFDYWGQGTLVTVSS
chain 2: DIQMTQSPSSLSASVGDRVTITCRASQGIRNDLNWYQHKPGKAPKLLIYAASNLQSGVPSRFSGSGSGTDFTLTISSLQPEDFATYYCQQSYSTPPWTFGQGTKVEIK

One assay addresses SARS-CoV-2 Omicron BA.1 spike pseudovirus. As to the kind of experiment: pseudovirus neutralization IC50; higher = weaker neutralization. Here is the method:
(§1)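 Single-round VSV luciferase pseudovirus mixed with antibody dilutions for 1 h and put on Huh-7 cells for about a day; IC50 from the dose curve.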
In the case of B1, the “pseudovirus neutralization IC50” value was 0.121 µg/mL.
On the same count and under the same terms, in the case of B2 it was 0.000415 µg/mL; in that of B3, above 10 µg/mL; in that of B4, above 10 µg/mL.
For B5, the “pseudovirus neutralization IC50” value worked out at 0.0346 µg/mL.
Take B6: the “pseudovirus neutralization IC50” value is 0.0526 µg/mL.
The same measure, in the same setting: in the case of B7 it was above 10 µg/mL; in that of B8, above 10 µg/mL; in that of B9, 0.00911 µg/mL.
Consider B10, for which the “pseudovirus neutralization IC50” value was above 10 µg/mL.
On to B11, for which the “pseudovirus neutralization IC50” value was above 10 µg/mL.
For the molecule B12, the “pseudovirus neutralization IC50” value is above 10 µg/mL.

The next assay deals with SARS-CoV-2 Omicron BA.2 spike pseudovirus. Described as above. Here is the method:
as §1
As to B1, the “pseudovirus neutralization IC50” value is 0.0814 µg/mL.
Turning to B2, the “pseudovirus neutralization IC50” value is 0.000749 µg/mL.
For B3, the “pseudovirus neutralization IC50” value was above 10 µg/mL.
Still for that read-out and setting: in the case of B4 it was above 10 µg/mL; in that of B5, 0.0203 µg/mL; in that of B6, 0.0759 µg/mL.
Regarding B7, the “pseudovirus neutralization IC50” value was above 10 µg/mL.
As for B8, the “pseudovirus neutralization IC50” value is above 10 µg/mL.
Regarding B9, the “pseudovirus neutralization IC50” value was determined as 0.00793 µg/mL.
As to B10, the “pseudovirus neutralization IC50” value is above 10 µg/mL.
The same measure, in the same setting: with B11 the figure was above 10 µg/mL; with B12, above 10 µg/mL.

In the next assay the target is SARS-CoV-2 Omicron BA.2.75 spike pseudovirus. The description is as above. The protocol:
as §1
Turning to B1, the “pseudovirus neutralization IC50” value came to 0.15 µg/mL.
On the same count and under the same terms, in the case of B2 it was 0.00127 µg/mL; in that of B3, above 10 µg/mL; in that of B4, above 10 µg/mL.
Take B5: the “pseudovirus neutralization IC50” value was 0.011 µg/mL.
Regarding B6, the “pseudovirus neutralization IC50” value was found to be 0.0679 µg/mL.
With B7, the “pseudovirus neutralization IC50” value is above 10 µg/mL.
Still for that read-out and setting: with B8 the figure was above 10 µg/mL.
In the case of B9, the “pseudovirus neutralization IC50” value is 0.00342 µg/mL.
On to B10, for which the “pseudovirus neutralization IC50” value was above 10 µg/mL.
For the molecule B11, the “pseudovirus neutralization IC50” value is above 10 µg/mL.
The same measure, in the same setting: with B12 the figure was above 10 µg/mL.

A further assay concerns the target SARS-CoV-2 Omicron BA.5 spike pseudovirus. The description is as above. The protocol: as §1
For the molecule B1, the “pseudovirus neutralization IC50” value was above 10 µg/mL.
On the same count and under the same terms, with B2 the figure was 0.0266 µg/mL; with B3, above 10 µg/mL.
With B4, the “pseudovirus neutralization IC50” value was above 10 µg/mL.
For B5, the “pseudovirus neutralization IC50” value amounted to 0.928 µg/mL.
For B6, the “pseudovirus neutralization IC50” value was 2.09 µg/mL.
B7: the “pseudovirus neutralization IC50” value was above 10 µg/mL.
In the case of B8, the “pseudovirus neutralization IC50” value was above 10 µg/mL.
For the molecule B9, the “pseudovirus neutralization IC50” value came out at 0.179 µg/mL.
With B10, the “pseudovirus neutralization IC50” value is above 10 µg/mL.
Same read-out and setting: in the case of B11 it was above 10 µg/mL; in that of B12, above 10 µg/mL.

A further assay has as its target SARS-CoV-2 Omicron BQ.1.1 spike pseudovirus. The description is as above. The protocol: as §1
Regarding B1, the “pseudovirus neutralization IC50” value was above 10 µg/mL.
As for B2, the “pseudovirus neutralization IC50” value came to 0.26 µg/mL.
For the molecule B3, the “pseudovirus neutralization IC50” value was above 10 µg/mL.
Still for that read-out and setting: with B4 the figure was above 10 µg/mL; with B5, above 10 µg/mL; with B6, above 10 µg/mL.
As for B7, the “pseudovirus neutralization IC50” value is above 10 µg/mL.
Same read-out and setting: in the case of B8 it was above 10 µg/mL.
For the molecule B9, the “pseudovirus neutralization IC50” value is above 10 µg/mL.
In the case of B10, the “pseudovirus neutralization IC50” value was above 10 µg/mL.
Regarding B11, the “pseudovirus neutralization IC50” value was above 10 µg/mL.
Turning to B12, the “pseudovirus neutralization IC50” value is above 10 µg/mL.

A further assay has as its target SARS-CoV-2 Omicron XBB spike pseudovirus. Described as above. The protocol: as §1
With B1, the “pseudovirus neutralization IC50” value is above 10 µg/mL.
Still for that read-out and setting: in the case of B2 it was above 10 µg/mL; in that of B3, above 10 µg/mL; in that of B4, above 10 µg/mL.
As to B5, the “pseudovirus neutralization IC50” value is 4.06 µg/mL.
For B6, the “pseudovirus neutralization IC50” value came out at 2.01 µg/mL.
Regarding B7, the “pseudovirus neutralization IC50” value is above 10 µg/mL.
As to B8, the “pseudovirus neutralization IC50” value is above 10 µg/mL.
Still for that read-out and setting: with B9 the figure was 4.38 µg/mL.
For the molecule B10, the “pseudovirus neutralization IC50” value is above 10 µg/mL.
On the same count and under the same terms, with B11 the figure was above 10 µg/mL; with B12, above 10 µg/mL.

For another assay, the target named is SARS-CoV-2 early D614G spike pseudovirus. The description is as above. The protocol:
as §1
Take B1: the “pseudovirus neutralization IC50” value was 0.198 µg/mL.
On to B2, for which the “pseudovirus neutralization IC50” value came to 0.00176 µg/mL.
Turning to B3, the “pseudovirus neutralization IC50” value is above 10 µg/mL.
On the same count and under the same terms, in the case of B4 it was 4.99 µg/mL; in that of B5, 0.315 µg/mL.
Consider B6, for which the “pseudovirus neutralization IC50” value is 0.646 µg/mL.
For the molecule B7, the “pseudovirus neutralization IC50” value was above 10 µg/mL.
On the same count and under the same terms, with B8 the figure was 4.94 µg/mL.
Consider B9, for which the “pseudovirus neutralization IC50” value is 0.0387 µg/mL.
Turning to B10, the “pseudovirus neutralization IC50” value came to 7.39 µg/mL.
On the same count and under the same terms, with B11 the figure was above 10 µg/mL.
For B12, the “pseudovirus neutralization IC50” value is 3.45 µg/mL.
